# Reference: EP1016405A2, “Arylating medicaments” (Radopath Pharmaceuticals International Limited, priority 1993, dated 1994)
# This is a selection: effects in other tests are not listed, and their absence says nothing. Some entries of the source have several records that differ or are many. The other results are left out here. There may be further records. The values listed for one entry differ, and nothing given here explains why; dose, time, organism, isomer or construct need not be as stated for each record.
# Test system: Chronically infected cells (H9rf)
# Experiment: Chronically Infected Cell Assay, HIV-1 antigen ELISA
# Format: cell-based
# Conditions: read-out: IC50 (Antiviral); Table 11.2; Against chronically infected cells; single assays; unit inferred
structure (smiles),measurement,value
O=[N+]([O-])c1cc([N+](=O)[O-])c(Cl)c([N+](=O)[O-])c1,IC50,900 nM and 2 µM
